Laboratory results reported in patent US9617262B2, “Antibacterial cyclopental[C]pyrrole substituted 3,4-dihydro-1H-[1,8]naphthyridinones” (Janssen Sciences Ireland UC, priority 2011, dated 2017).

Amino acid sequences for entries named in this document (tags omitted).
UniProt Q6GI75, whole entry: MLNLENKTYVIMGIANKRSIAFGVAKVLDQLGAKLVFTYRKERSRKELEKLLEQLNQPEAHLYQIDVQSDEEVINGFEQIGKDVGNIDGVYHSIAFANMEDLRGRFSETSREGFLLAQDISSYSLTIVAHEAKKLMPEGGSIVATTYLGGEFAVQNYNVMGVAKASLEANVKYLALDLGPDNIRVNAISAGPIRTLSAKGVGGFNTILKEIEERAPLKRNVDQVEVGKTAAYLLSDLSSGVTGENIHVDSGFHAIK

How the values were obtained:
[1] = molecular target: S. aureus ATCC 29213 FabI (Staphylococcus aureus (strain MRSA252), UniProt Q6GI75); assay: Staphylococcus aureus FabI enzyme inhibition assay; details: pH 6.5, 30 minutes at room temperature
Experimental: FabI enzyme inhibition assays were carried out in half-area, 384-well microtitre plates. Compounds were evaluated in 40-μl assay mixtures containing 100 mM NaADA, pH 6.5 (ADA=N-[2-acetamido]-2iminodiacetic acid), 250 μM crotonoyl-CoA, 625 μM NADH and 50 μg/ml S. aureus ATCC 29213 FabI. Inhibitors were typically varied over the range of 50 to 0.39 μM. The reaction mixtures were incubated for 30 minutes at room temperature and the reaction was stopped by adding 200 mM Tris buffer (pH 9.0) to create a pH-shift. The consumption of NADH was monitored by measuring the change in absorbance at […]. By comparing sample readings to those of negative (absence of compound) and positive (absence of enzyme) controls, the percent inhibition of enzymatic activity of the compounds was determined. A best-fit curve is fitted by a minimum of squares method. From this an IC50-value (expressed in μg/ml), resulting in 50% inhibition of enzymatic activity, was obtained.

[2] = test system: Escherichia coli Tol C mutant; assay: Antimicrobial spectrum, broth microdilution MIC; details: E. coli tolC mutant
Experimental: (§1) Minimum Inhibitory Concentrations (MICs) were determined in accordance with the Clinical and Laboratory Standards Institute (CLSI) methodology against aerobic bacteria (CLSI M07-A8) (see Clinical and Laboratory Standards Institute. 2009. Methods for dilution antimicrobial susceptibility tests for bacteria that grow aerobically. CLSI document M07-A8, Vol. 29, No. 2.) by the broth microdilution method with cation-adjusted Mueller-Hinton broth (CA-MHB) medium for the majority of organisms, except for Haemophilus influenza, where Haemophilis test medium (HTM) broth was used. Descriptions of the individual organisms can be found in the table. Where possible, ATCC standard strains were tested.
(§2) The inoculum density for the susceptibility testing was standardized to give a final inoculum of approximately 5×10^5 CFU/mL. The broth MIC was determined as the lowest concentration of drug that prevented visible growth after 16-24 hours (species dependent) of incubation at 35° C.-37° C.
(§3) Stock solutions of the compounds were prepared in DMSO at concentrations of 1 mg/mL. Linezolid was prepared in DMSO at a concentration of 2 mg/mL. Stock solutions of all compounds were diluted into CA-MHB to give a range of two-fold dilutions, depending upon the sensitivity of the organism being tested.

[3] = test system: Staphylococcus aureus NRS121; LZD-R; assay: Antimicrobial spectrum, broth microdilution MIC; assay type: cell-based; details: S. aureus NRS121
Experimental: as §1, §2, §3

[4] = test system: Staphylococcus aureus ATCC 29213; reference strain MSSA; assay: Antimicrobial spectrum, broth microdilution MIC; assay type: cell-based; details: S. aureus ATCC 29213
Experimental: as §1, §2, §3

[5] = test system: Haemophilus influenzae ATCC 49247; reference strain; assay: Antimicrobial spectrum, broth microdilution MIC; assay type: cell-based; details: H. influenza ATCC 49247
Experimental: as §1, §2, §3

[6] = test system: Escherichia coli ATCC 25922; reference strain; assay: Antimicrobial spectrum, broth microdilution MIC; assay type: cell-based; details: E. coli ATCC 25922
Experimental: as §1, §2, §3

[7] = test system: Staphylococcus aureus ATCC 43300; reference strain MRSA; assay: Antimicrobial spectrum, broth microdilution MIC; assay type: cell-based; details: S. aureus ATCC 43300
Experimental: as §1, §2, §3

[8] = test system: Staphylococcus aureus NRS120; LZD-R; assay: Antimicrobial spectrum, broth microdilution MIC; assay type: cell-based; details: S. aureus NRS120
Experimental: as §1, §2, §3

[9] = test system: Staphylococcus aureus NRS119; LZD-R; assay: Antimicrobial spectrum, broth microdilution MIC; assay type: cell-based; details: S. aureus NRS119
Experimental: as §1, §2, §3

[10] = test system: Moraxella catarrhalis ATCC 8176; b-lactamase negative; assay: Antimicrobial spectrum, broth microdilution MIC; assay type: cell-based; details: M. catarrhalis ATCC 8176
Experimental: as §1, §2, §3

[11] = test system: Methicillin-sensitive Staphylococcus aureus strain ATCC 29213; assay: In vivo efficacy, peritonitis model of S. aureus infection; details: PO, Sol 20% CD + 1HC1, IP infection, inoculum 8.9 log10, female Swiss albino mice, 3 days post-infection
Source text: The concept of studying the in vivo effect of an antibacterial compound by treating intraperitoneally infected mice was introduced in 1911 for optochin against pneumococci (Morgenroth and Levy, 1911). The popularity of the model comes from the ease of its use with short-duration experiments, reproducible infections and simple end-points.
Methicillin-sensitive Staphylococcus aureus strain ATCC 29213 was used to infect female Swiss albino mice. A Brain Heart Infusion (BHI) broth bacterial culture was inoculated the day before infection, incubated at 37° C. overnight and diluted in fresh BHI broth to the desired concentration. I.p. injection of ˜5×10^8-5×10^9 colony forming units (CFU) was performed in either of the lateral lower quadrants of the abdomen. After inoculation, mice were kept in their cages under daily observation for development of signs of infection or death. For the treatment of mice, both the p.o. and i.v. routes were used and each mouse was treated individually by gavage or by i.v. injection. Both solutions (p.o. and i.v.) and suspensions (p.o.) were tested in this model. The parameter used for monitoring the course of infection and the effect of treatment was death or survival of the animals over 3 days post-infection. […]

[12] = In vivo pharmacokinetic and oral bioavailability; details: male Swiss mice
Experimental: The in vivo pharmacokinetics and oral bioavailability of the compound of the examples was/is investigated in male Swiss mice (fed) following single intravenous (i.v.) bolus and oral (p.o.) administration. For the i.v. and p.o. solution formulations, the compound was/is dissolved in a 20% HP-β-CD solution. The pH of the formulations was/is around pH 4. All i.v. formulations were isotonic.

O=C1CCc2cc(/C=C/C(=O)N3CC4C=C(Cc5ccccc5)CC4C3)cnc2N1 (centres unmarked)
FabI IC50 [1]: 0.60 µg/mL

O=C1CCc2cc(/C=C/C(=O)N3C[C@@H]4CC(c5ccncc5)=C[C@@H]4C3)cnc2N1 (single isomer, unassigned)
MIC90 [2]: 1 µg/mL (≈ 2.59 µM)
FabI IC50 [1]: 0.44 µg/mL
MIC90 [3]: 0.06 µg/mL (≈ 0.155 µM)
MIC90 [4]: 0.03 µg/mL (≈ 0.0776 µM)
MIC90 [5]: 0.5 µg/mL (≈ 1.29 µM)
MIC90 [6]: 8 µg/mL (≈ 20.7 µM)
MIC90 [7]: 0.03 µg/mL (≈ 0.0776 µM)
MIC90 [8]: 0.06 µg/mL (≈ 0.155 µM)
MIC90 [9]: 0.06 µg/mL (≈ 0.155 µM)
MIC90 [10]: 0.12 µg/mL (≈ 0.311 µM)

Cc1noc(C)c1C1=CC2CN(C(=O)/C=C/c3cnc4c(c3)CCC(=O)N4)CC2C1 (centres unmarked)
FabI IC50 [1]: 0.51 µg/mL

O=C1CCc2cc(/C=C/C(=O)N3CC4C=C(c5ccsc5Cl)CC4C3)cnc2N1 (centres unmarked)
FabI IC50 [1]: 0.76 µg/mL

N#Cc1ccc(C2=CC3CN(C(=O)/C=C/c4cnc5c(c4)CCC(=O)N5)CC3C2)s1 (centres unmarked)
FabI IC50 [1]: 0.63 µg/mL

COc1ccccc1C1=CC2CN(C(=O)/C=C/c3cnc4c(c3)CCC(=O)N4)CC2C1 (centres unmarked)
FabI IC50 [1]: ~0.6 µg/mL

O=C1CCc2cc(/C=C/C(=O)N3CC4C=C(c5cccnc5Cl)CC4C3)cnc2N1 (centres unmarked)
FabI IC50 [1]: 0.43 µg/mL

Cc1csc(C2=CC3CN(C(=O)/C=C/c4cnc5c(c4)CCC(=O)N5)CC3C2)c1 (centres unmarked)
FabI IC50 [1]: 0.63 µg/mL

CCOC(=O)C1=CC2CN(C(=O)/C=C/c3cnc4c(c3)CCC(=O)N4)CC2C1 (centres unmarked)
FabI IC50 [1]: 0.54 µg/mL

O=C1CCc2cc(/C=C/C(=O)N3CC4C=C(c5ccc(Cl)s5)CC4C3)cnc2N1 (centres unmarked)
FabI IC50 [1]: 0.99 µg/mL

O=C1CCc2cc(/C=C/C(=O)N3C[C@H]4CC(c5ccsc5)=C[C@H]4C3)cnc2N1
MIC90 [2]: >8 µg/mL
FabI IC50 [1]: 0.46 µg/mL
% Survival ([11]; QD 1 mpk): 57%
% Survival ([11]; QD 5 mpk): 100%
MIC90 [3]: 0.06 µg/mL (≈ 0.153 µM)
MIC90 [4]: 0.03 µg/mL (≈ 0.0766 µM)
MIC90 [5]: >8 µg/mL
MIC90 [6]: >8 µg/mL
MIC90 [7]: 0.03 µg/mL (≈ 0.0766 µM)
MIC90 [8]: 0.03 µg/mL (≈ 0.0766 µM)
MIC90 [9]: 0.03 µg/mL (≈ 0.0766 µM)
MIC90 [10]: 0.25 µg/mL (≈ 0.639 µM)
Plasma clearance Cl ([12]; i.v. 2.5 mg/kg): 8.17 mL/min/kg
Vdz ([12]; i.v. 2.5 mg/kg): 0.9 L/kg
C0 ([12]; i.v. 2.5 mg/kg, 20% HP-β-CD solution): 4524 ng/mL
Oral bioavailability ([12]; p.o. 10 mg/kg vs i.v. 2.5 mg/kg): 59%

O=C1CCc2cc(/C=C/C(=O)N3C[C@@H]4CC(O)(c5ccccc5)C[C@@H]4C3)cnc2N1 (some centres unmarked)
FabI IC50 [1]: 2.55 µg/mL

NC(=O)C1=CC2CN(C(=O)/C=C/c3cnc4c(c3)CCC(=O)N4)CC2C1 (centres unmarked)
FabI IC50 [1]: 2.93 µg/mL

O=C1CCc2cc(C#CC(=O)N3CC4C=C(c5ccccc5)CC4C3)cnc2N1 (centres unmarked)
FabI IC50 [1]: 0.80 µg/mL

Cc1nnc(C2=CC3CN(C(=O)/C=C/c4cnc5c(c4)CCC(=O)N5)CC3C2)s1 (centres unmarked)
FabI IC50 [1]: 0.44 µg/mL

COc1ccncc1C1=CC2CN(C(=O)/C=C/c3cnc4c(c3)CCC(=O)N4)CC2C1 (centres unmarked)
FabI IC50 [1]: 0.54 µg/mL

O=C1CCc2cc(/C=C/C(=O)N3CC4C=C(c5cn[nH]c5)CC4C3)cnc2N1 (centres unmarked)
FabI IC50 [1]: 0.54 µg/mL

CCC1=CC2CN(C(=O)/C=C/c3cnc4c(c3)CCC(=O)N4)CC2C1 (centres unmarked)
FabI IC50 [1]: 0.36 µg/mL

O=C1CCc2cc(/C=C/C(=O)N3CC4C=CCC4C3)cnc2N1 (centres unmarked)
FabI IC50 [1]: 0.83 µg/mL

CN(C)C(=O)C1=CC2CN(C(=O)/C=C/c3cnc4c(c3)CCC(=O)N4)CC2C1 (centres unmarked)
FabI IC50 [1]: 1.62 µg/mL

In brackets after ≈: the same amount, converted by molar mass.
